Consider 2 molecules from US20250197484A1 (ECO ANIMAL HEALTH, published 2025).

This test concerns the target Clostridium perfringens NetB toxin (necrotic enteritis B-like toxin) (Clostridium perfringens). Description: cell-based or functional assay.

B1: Net_83 (VHH)
VHH: QVQLVESGGGLVQAGESLRLSCAASGSIRSISFMNWYRQQPGKQRELVAGINQIGNTNYAGSVKGRFTISRDNAKNTVYLQMNSLKPEDTAVYYCNVIVRGTVSPFQFWGQGTQVTVSS
On to B1, for which the “IC50, inhibition of NetB-induced chicken RBC lysis, pH 6.0, NetB 20 nM” value was found to be 103 nM; the “IC50, inhibition of NetB-induced chicken RBC lysis, pH 7.4, NetB 20 nM” value stood at 138 nM; the “Molar ratio to NetB @ 20 nM, pH 6.0” value is 5.13 VHH:NetB molar ratio; the “Molar ratio to NetB @ 20 nM, pH 7.4” value is 6.88 VHH:NetB molar ratio.

B2: Net_14 (VHH)
VHH: QVQLVESGGGLVQAGGSVRLSCVASGLTFSGYSLGWFRQAPGKEREGVSYISSSGMITDYADSVKGRVTISRDDAKSTMYLQMNSLKPEDTAVYYCAARFPRPRSWLSTDSYNYWGQGAQVTVSS
B2: the “IC50, inhibition of NetB-induced chicken RBC lysis, pH 6.0, NetB 20 nM” value was 32.2 nM; the “IC50, inhibition of NetB-induced chicken RBC lysis, pH 7.4, NetB 20 nM” value came to 74 nM; the “Molar ratio to NetB @ 20 nM, pH 6.0” value is 1.61 VHH:NetB molar ratio; the “Molar ratio to NetB @ 20 nM, pH 7.4” value is 3.7 VHH:NetB molar ratio.
